Assay results as given in paper PMC7940615 (Scientific Reports, 2021).

Experiments:
[1] = tested on: human lung A549 cells
[2] = tested on: Vero E6 cells

NC(N)=Nc1nc(CSCCC(N)=NS(N)(=O)=O)cs1 [Famotidine]
cytotoxicity (in words) [1]: not toxic | cytotoxicity (in words) [2]: not toxic
